The subject of data set [1] is LmiA (Z4267). In words: competition with a labelled probe. The note with it: labeled PLEE1, 10-100 nM competitor; EMSA: 1 nM probe, 1 mM Tris-HCl pH 7.5, 0.1 mM EDTA, 0.2 mM DTT, 5 mM MgCl2, 10 mM KCl, 20 min 37 C; PhoP with 0.1 M acetyl phosphate; recombinant protein; protein details: N-terminal 6xHis (pET-28a); probe letters rebuilt from the primers and the genome.
The subject of data set [2] is LmiA (Z4267). In words: EMSA. Particulars: 5 mM Mg2+; EMSA: 1 nM probe, 1 mM Tris-HCl pH 7.5, 0.1 mM EDTA, 0.2 mM DTT, 5 mM MgCl2, 10 mM KCl, 20 min 37 C; PhoP with 0.1 M acetyl phosphate; recombinant protein; protein details: N-terminal 6xHis (pET-28a); label: DIG; probe letters rebuilt from the primers and the genome. A general note: Mobility shift assays separate free from complexed probe on a gel.

These results are taken from article PMC7667037.

Construct, isoform or probe ends are uncertain for at least one entry.

For “TCCTGGGGATTCACTCGCTTGCCGCCTTCCTGTAACTCGAATTAAGTAGAGTATAGTGAAACGGTTCAGCTTGGTTTTTATTCTGTTTTATTTGTTTATGCAATGAGATCTATCTTATAAAGAGAAACGCTTAACTAAATGGAAATGCAATTATTAAAGTCGTTTGTTAACGAGATGATTTTCTTCTATATCATTGATTTTAAATGGATTTTAAAAATATATGATTTTTTTGTTGACATTTAATGATAATGTATTTTACACATTAGAAAAAAGAGAATAATAACATTTTAAGGTGGTTGTTTGATGAAATAGATGTGTCCTAATTTGATAGATAAACGTTATCTCACATAATTTATATCATTTGATTAATTGTTGGTCCTTCCTGATAAGGTCGCTAATAGCTTAAAATATTAAAGCATGCGGAGATTATTTATTATGA (double strand) [PLEE1 unlabeled competitor]”, in the data set with LmiA (Z4267) [1], the binding result is given as “binds”.
As for “TCCTGGGGATTCACTCGCTTGCCGCCTTCCTGTAACTCGAATTAAGTAGAGTATAGTGAAACGGTTCAGCTTGGTTTTTATTCTGTTTTATTTGTTTATGCAATGAGATCTATCTTATAAAGAGAAACGCTTAACTAAATGGAAATGCAATTATTAAAGTCGTTTGTTAACGAGATGATTTTCTTCTATATCATTGATTTTAAATGGATTTTAAAAATATATGATTTTTTTGTTGACATTTAATGATAATGTATTTTACACATTAGAAAAAAGAGAATAATAACATTTTAAGGTGGTTGTTTGATGAAATAGATGTGTCCTAATTTGATAGATAAACGTTATCTCACATAATTTATATCATTTGATTAATTGTTGGTCCTTCCTGATAAGGTCGCTAATAGCTTAAAATATTAAAGCATGCGGAGATTATTTATTATGA (double strand) [PLEE1]”, the binding result in the data set with LmiA (Z4267) [2] is “binds”.
